# Test results taken from US20230227512A1.
# Experiments:
# 201C-433C [1] = experiment: BLI
# 201C-433C [2] = experiment: SPR
# [3] = target: BG505.SOSIP.664.201C-433C HIV-1 Env ectodomain trimer; experiment: SPR
substance,measurement,setting,value
b12,pKd,201C-433C [1],< 5.40
same,pKd,201C-433C [2],< 6.00
VRC26.09,pKd,201C-433C [1],7.47
same,pKd,201C-433C [2],7.94
PGT128,pKd,201C-433C [2],7.88
8ANC195,pKd,201C-433C [2],7.84
soluble CD4 (sCD4) (from UniProt P01730 26-208),pKd,[3],8.02

# pKd: −log10 of the molar value.
